Drawing on PubChem BioAssay AID2606 (The Scripps Research Institute Molecular Screening Center, 2010), this text covers inhibition for 65 compounds.

Amino acid sequences for entries named in this document (tags omitted). A change or cut given only in a name is not applied to a line headed by its entry.
UniProt P9WHR9: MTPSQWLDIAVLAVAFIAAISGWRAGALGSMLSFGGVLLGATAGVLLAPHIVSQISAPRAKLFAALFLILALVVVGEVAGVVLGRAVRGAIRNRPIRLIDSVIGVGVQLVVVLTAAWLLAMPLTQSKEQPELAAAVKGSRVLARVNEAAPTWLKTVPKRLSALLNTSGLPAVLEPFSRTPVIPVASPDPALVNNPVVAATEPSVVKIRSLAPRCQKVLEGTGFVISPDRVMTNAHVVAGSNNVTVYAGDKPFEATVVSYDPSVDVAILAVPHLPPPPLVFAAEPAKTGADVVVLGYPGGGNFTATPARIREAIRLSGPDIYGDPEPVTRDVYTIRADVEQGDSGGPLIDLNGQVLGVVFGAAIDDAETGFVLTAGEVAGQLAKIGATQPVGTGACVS

Each structure is given as a SMILES string. The entries are a selection whose mix differs from that of the whole data set. The source made the active and inactive calls. Cut-off read from the data, not from the text of the source: active = inhibition above about 38%; inactive = the rest.

The inhibition is the relative decrease from the control value, in per cent.

The target in the experiment is Serine protease Rv3671c (Mycobacterium tuberculosis (strain ATCC 25618 / H37Rv)) (UniProt P9WHR9). Description: inhibition of M. tuberculosis membrane protease Rv3671c – biochemical, fluorescence polarization, M. tuberculosis H37Rv, primary screen (AID 2606).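 Note: extracellular domain of Rv3671c used as enzyme; 0% = enzyme with DMSO and 100% = no enzyme.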 As to conditions: at 5.96 µM; active compounds read high. (In general: In fluorescence polarisation assays a small probe gives low polarisation when free and higher when bound to something large.)
For the compound `CC(C)c1ccc(OP(=O)(Nc2ccccn2)Oc2ccccc2F)cc1` (stereo not given), the inhibition is inactive: 2.91%.

As for `ClCCSc1nnc(-c2cccnc2)o1`, the inhibition was inactive: -9.01%.

Regarding `O=[N+]([O-])c1cc([N+](=O)[O-])c(-c2ccn[nH]2)s1`, the inhibition was inactive: -9.42%.

`CC(C)NC(=O)NP(=O)(Oc1ccccc1)Oc1ccccc1`: the inhibition is inactive: -6.05%.

With `CCN(CC)C(=S)SC(NC=O)C(Cl)(Cl)Cl` (stereo not given), the inhibition was inactive: -3.44%. Turning to `COc1cc(C(=O)NCC2(N3CCOCC3)CCCCC2)ccc1OCC(C)C`, the inhibition was inactive: -0.58%. Under `C[As](=O)(O)c1cccc(C(=O)O)c1` stands inactive: -11.3%; under `O=[As](O)(c1ccc(O)cc1)c1ccccc1O`, inactive: 0.01%. For the compound `Cc1ccc2nc3c(c(C)c2c1)CC(C(Cl)Cl)S3` (stereo not given), the inhibition is inactive: -13.2%. With `Cc1ccc(OP(=O)(Nc2ccc([N+](=O)[O-])cn2)Oc2ccc(C)cc2)cc1`, the inhibition is inactive: -8.56%. On to `COc1ccc(N/C(=N/P(=O)(N2CCOCC2)N2CCOCC2)N2CCOCC2)cc1`, for which the inhibition is inactive: -0.8%. With `Cc1cc(=O)[nH]c(N[N+](=O)[O-])n1`, the inhibition is inactive: 2.5%.

For `O=C(OC1CN2CCC1CC2)C12CC3CC(CC(C3)C1)C2` (stereo not given), the inhibition is inactive: -4.91%. With `Cc1c2c(nc3ccccc13)SC(C(Cl)Cl)C2` (stereo not given), the inhibition was inactive: 9.17%.

Consider `COc1cc(I)ccc1[As](=O)(O)O`, for which the inhibition was inactive: -2.8%. Regarding `COc1ccc2nc(NP(=O)(c3ccccc3)c3ccccc3)sc2c1`, the inhibition is inactive: -2.12%.

For the compound `CCOC(=O)c1ccc(NC(=O)C(C)(CCl)SC)cc1` (stereo not given), the inhibition is inactive: -5.65%. The same measure for `O=C(OC1CN2CCC1CC2)c1cccc([N+](=O)[O-])c1` (stereo not given): inactive: 4.68%; for `CCC(C)N(CC(C)C)C(=S)SC(NC(C)=O)C(Cl)(Cl)Cl` (stereo not given): inactive: 1.73%; for `COP1(=S)c2c(C)nn(CCC#N)c2N=C(c2ccc(F)cc2)N1C` (stereo not given): inactive: -8.1%. As for `O=C(Nc1ccncc1[N+](=O)[O-])c1ccc([N+](=O)[O-])cc1[N+](=O)[O-]`, the inhibition was inactive: -6.49%. The same measure for `O=C(COc1ccccc1)OC1CN2CCC1CC2` (stereo not given): inactive: -0.34%; for `CCOC(=O)Nc1cccc([As](=O)(O)O)c1`: inactive: -2.79%.

In the case of `O=P(Nc1ccccn1)(c1cccc2ccccc12)c1cccc2ccccc12`, the inhibition is inactive: 6.13%. The same measure for `Cc1cc(SC(NC=O)C(Cl)(Cl)Cl)ncn1` (stereo not given): inactive: 5.39%; for `CCOC(=O)Nc1ccc([As](=O)(O)O)c(O)c1`: inactive: 5.67%. The same measure for `Cc1cc(SC(NC(=O)c2ccccc2)C(Cl)(Cl)Cl)nc(C(C)C)n1` (stereo not given): inactive: 6.94%; for `O=P1(Nc2ncccn2)COc2ccccc2OC1`: inactive: 2.81%. `O=[As](O)(c1cccs1)c1cccs1`: the inhibition is inactive: 1.29%. Under `Cc1ccc(OCC(=O)OC2CN3CCC2CC3)cc1` (stereo not given) stands inactive: -1.04%; under `O=P1(Nc2ccc(Br)cn2)COc2ccccc2OC1`, inactive: 1.11%. As to `NS(=O)(=O)c1cccc(NC(=O)COC(=O)C(O)(c2ccccc2)c2ccccc2)c1`, the inhibition is inactive: 4.28%. Consider `Nc1cccc([As](=O)(O)c2ccccc2)c1`, for which the inhibition was inactive: 8.07%. Under `CC1CCC(C(C)C)C(OP(=O)(Nc2ccccn2)c2ccccc2)C1` (stereo not given) stands inactive: 6.73%. Consider `Cc1ccc(C(=O)OC2CN3CCC2CC3)cc1` (stereo not given), for which the inhibition was inactive: -10.4%. `Cc1nn(-c2ccccc2)c2c1P(=O)(N1CCOCC1)N(C)C(c1ccccc1)=N2` (stereo not given): the inhibition is inactive: -4.92%. For `O=C(/C=C/c1ccccc1)OC1CN2CCC1CC2` (stereo not given), the inhibition is inactive: -5.68%. Take `CN(C)C1(CNC(=O)c2ccc(S(C)(=O)=O)cc2)CCCCC1`: the inhibition was inactive: -3.02%. Take `COc1ccccc1CNC(=O)COC(=O)C(O)(c1ccccc1)c1ccccc1`: the inhibition was inactive: 1.68%. Regarding `CC1(CBr)Cn2c(nc3ccccc3c2=O)S1` (stereo not given), the inhibition was inactive: -2.08%.

With `O=[As](O)(c1ccccc1Br)c1ccccc1Br`, the inhibition is inactive: -1.65%. The same measure for `CC(C)/C=N\N=C(\N)N[N+](=O)[O-]`: inactive: 1.04%; for `CN(C(=O)Cc1ccc(Cl)c(Cl)c1)[C@@H]1CCCC[C@H]1N1CCCC1`: inactive: 12.3%; for `CCOP(=O)(Nc1ccc(C)cn1)OCC`: inactive: -4.38%. Consider `CN(CCCl)Cc1cc(Cl)c(NC2=NCCN2)c(Cl)c1`, for which the inhibition was inactive: -1.22%.

As for `CCOP(=O)(NC(=NC(C)c1ccccc1)NC(C)c1ccccc1)OCC` (stereo not given), the inhibition was inactive: -7.3%.

For `O=P1(Nc2ccccn2)COc2ccccc2OC1`, the inhibition is inactive: -7.47%. In the case of `CCC1=CC2Cc3nc4ccc(Cl)cc4c(N)c3C(C1)C2` (stereo not given), the inhibition is inactive: 1.97%.

As to `CC(C)(C)C(=O)NC(Sc1ncccn1)C(Cl)(Cl)Cl` (stereo not given), the inhibition is inactive: 0.49%. On to `Clc1n[nH]nc1-c1nn[nH][15n]1`, for which the inhibition was inactive: 3.19%.

As to `CCCOP(=S)(Nc1nc(N)cc(=O)[nH]1)OCCC`, the inhibition was inactive: -8.02%. Consider `Nc1cccc2c([As](=O)(O)O)cccc12`, for which the inhibition was inactive: -31.5%.

With `Cc1ccc(NCCc2c([N+](=O)[O-])cc([N+](=O)[O-])cc2[N+](=O)[O-])cc1`, the inhibition is inactive: 7.98%. `CCOP(=O)(Nc1cccc2ccccc12)OCC`: the inhibition is inactive: -3.94%. Turning to `COc1cc(C2NCCC3(OCCO3)C2(C)C)cc(OC)c1OC` (stereo not given), the inhibition was inactive: -3.52%. With `CS(=O)(=O)c1ccc(Cl)c(NC(=O)COC(=O)C(O)(c2ccccc2)c2ccccc2)c1`, the inhibition is inactive: 1.94%. For the compound `O=[As](O)(O)c1cccnc1`, the inhibition was inactive: 0.31%. Under `COc1cc(C(=O)NCC2(N3CCOCC3)CCCCC2)cc(Cl)c1OC(C)C` stands inactive: -4.59%; under `O=C(OC1CN2CCC1CC2)c1ccc(Cl)cc1` (stereo not given), inactive: 5.73%; under `Cc1cccc(OCC(=O)OC2CN3CCC2CC3)c1` (stereo not given), inactive: -1.57%. On to `O=[As](O)(c1cccc(O)c1)c1cccc(O)c1`, for which the inhibition was inactive: 6.88%. In the case of `NC(=O)Nc1ccc([As](=O)(O)O)cc1`, the inhibition is inactive: 0.43%. Regarding `CN(C(=O)Cc1ccc(Cl)c(Cl)c1)[C@H]1CC[C@@]2(CCCO2)C[C@@H]1N1CCCC1`, the inhibition is inactive: -0.03%. In the case of `O=[N+]([O-])c1ccc2c(c1)nnn2O`, the inhibition is inactive: 10.3%. `CN(C)C(=O)c1cc([N+](=O)[O-])cc2c1-c1c(cc([N+](=O)[O-])cc1[N+](=O)[O-])C2=O`: the inhibition is inactive: 28.3%.
